Values from PubChem BioAssay AID1259414 (Drosophila RNAi Screening Center, 2018)
In all, the deposit lists about 24,000 reagents; this is an unselected part of those that have a named target and a result. In the full data, about 1,210 (5%) got an active call. 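Inactive calls also include excluded dsRNAs with several or no targets, genes unexpressed in JW18, and well A1, regardless of score.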 Reagents against one gene are numbered here. Names joined by + are all predicted targets of the reagent.

Purpose: 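Genome-wide screen for host control of endosymbiont load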 (primary screen)
Cell system: Drosophila JW18 cells infected with Wolbachia
Reagents: long dsRNA against Drosophila genes, 0.25 µg dsRNA per well of a 384-well plate
Timing: 5 days
Conditions: cells persistently infected with Wolbachia before knock-down; no added drug
Detection: 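Imaged fluorescence in situ signal for Wolbachia 23S rRNA per DAPI-counted host cell, given as a robust z-score within each plate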
Reading the numbers: Wolbachia per cell robust z: higher = more Wolbachia per host cell than the plate typical
Active means: 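Hit when robust z is 1.5 or more, or -1.5 or less, in at least two of three replicates; excludes dsRNAs with several or no targets, genes not expressed in JW18 and well A1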

| target | dsRNA no. | Wolbachia per cell robust z, rep 1 | Wolbachia per cell robust z, rep 2 | Wolbachia per cell robust z, rep 3 | Call |
| --- | --- | --- | --- | --- | --- |
| CG14069 | 1 | -5.77 | -2.79 | -0.471 | inactive |
| mip130 | 1 | -0.377 | 1.09 | 0.586 | inactive |
| mip130 | 2 | 0.792 | -0.296 | 0.116 | inactive |
| CG4480 | 1 | -0.972 | -0.0578 | 0.0224 | inactive |
| CG42514 | 1 | 0.436 | -0.813 | -0.598 | inactive |
| Pop2 | 1 | -1.25 | -8.05 | 0.42 | inactive |
| Pop2 | 2 | 0.142 | 0.361 | -0.643 | inactive |
| WRNexo | 1 | -0.714 | 0.142 | 0.871 | inactive |
| CG34286 | 1 | -2.24 | 0.0766 | -0.335 | inactive |
| Chrac-16 | 1 | 1.23 | 1.11 | 1.9 | inactive |
| Chrac-16 | 2 | -3.19 | -7.6 | -2.12 | active |
| CG10748 | 1 | -1.65 | 0.337 | 1.17 | inactive |
| CG32354 | 1 | 0.586 | -6.45 | 0.42 | inactive |
| CG32354 | 2 | 0.483 | 1.07 | 0.74 | inactive |
| CG32354 | 3 | -1.2 | -0.334 | -0.397 | inactive |
| CG12299 | 1 | 1.88 | -7.18 | -0.197 | inactive |
| CG12299 | 2 | -0.289 | -0.153 | -0.933 | inactive |
| CG12299 | 3 | 0.39 | -0.0673 | 0.3 | inactive |
| RabX1 | 1 | 0.0669 | -0.519 | -2.29 | inactive |
| CG31698 | 1 | -0.827 | 1 | 1.2 | inactive |
| CG31698 | 2 | 1.16 | 1.55 | 1.09 | inactive |
| rempA + Tspo | 1 | -1.25 | -4.89 | 0.86 | inactive |
| CycG | 1 | 1.14 | -0.653 | -3.39 | inactive |
| CycG | 2 | -0.186 | -4.87 | -0.171 | inactive |
| NPFR | 1 | -0.429 | -1.31 | 0.0118 | inactive |
| Swim | 1 | -4.66 | 0.417 | 0.433 | inactive |
| CG6661 + asRNA:CR42871 | 1 | 0.99 | -0.335 | 1.06 | inactive |
| CG6661 + asRNA:CR42871 | 2 | -1.62 | -6.73 | 0.662 | inactive |

3 entries already listed, sorted by “Wolbachia per cell robust z, rep 2”, ascending:
| target | dsRNA no. | Wolbachia per cell robust z, rep 1 | Wolbachia per cell robust z, rep 2 | Wolbachia per cell robust z, rep 3 | Call |
| --- | --- | --- | --- | --- | --- |
| CG12299 | 1 | 1.88 | -7.18 | -0.197 | inactive |
| CG32354 | 3 | -1.2 | -0.334 | -0.397 | inactive |
| CG12299 | 2 | -0.289 | -0.153 | -0.933 | inactive |

More reagents:
| target | dsRNA no. | Wolbachia per cell robust z, rep 1 | Wolbachia per cell robust z, rep 2 | Wolbachia per cell robust z, rep 3 | Call |
| --- | --- | --- | --- | --- | --- |
| Uxs | 1 | 0.614 | -0.664 | 0.131 | inactive |
| Uxs | 2 | 0.202 | 0.211 | -0.182 | inactive |
| ccb | 1 | -0.99 | -0.881 | -0.829 | inactive |
| GstT2 | 1 | 0.37 | -1.12 | -2.05 | inactive |
| CG10195 | 1 | 0.232 | 0.488 | 0.838 | inactive |
| rgn | 1 | 0.315 | 0.489 | 0.0366 | inactive |
| CG33672 + Mvk + spt4 | 1 | -0.547 | -0.433 | 0.159 | inactive |
| TfIIFbeta | 1 | -1.88 | 0.911 | 0.857 | inactive |
| TfIIFbeta | 2 | 0.531 | 0.659 | 0.68 | inactive |
| TfIIFbeta | 3 | 0.0799 | -0.708 | 0.763 | inactive |
| nop5 | 1 | 0.123 | -0.613 | 2.14 | inactive |
| CG3457 | 1 | -0.739 | -0.0791 | -2.63 | inactive |
| CG3457 | 2 | -0.72 | -0.0803 | 0.456 | inactive |
| ICA69 | 1 | 0.299 | -0.564 | 0.436 | inactive |
| Sec23 | 1 | 0.175 | -0.423 | -0.22 | inactive |
| Ssdp | 1 | 1.03 | -0.851 | -3.83 | inactive |
| Ssdp | 2 | 0.267 | 1.13 | 0.598 | inactive |
| Smyd4-4 | 1 | -0.186 | 0.76 | -0.0482 | inactive |
